From US5629198A (priority 1991, dated 1997)

How the values were obtained:
MOLT-4/ARV = experiment: Killing effect on cells persistently infected with HIV (Test Example 1), trypan blue; assay type: cell-based, human; settings: 3 days
Method: (§1) The cell killing effects of test substances were determined using a cell strain persistently infected with HIV in MOLT-4 cells and MOLT-4 cells.
(§2) MOLT4/HTLV-IIIB, MOLT4/ARV and MOLT4 cell strains were separately inoculated in proportions of 4×10^4 cells/well (200 μl) on a 96-well plate, and the above test substances in various concentrations were separately added in an amount of 20 μl thereto. After each cell sample was cultured for 3 days at 37° C. in the presence of 5% CO2, the culture was diluted to a triple or quadruple amount, thereby counting the number of living cells by a trypan blue dye exclusion test. As a control, 20 μl of PBS were added in place of each test substance. Each numerical value is expressed in terms of the percentage of living cells to the control.

MOLT-4/HTLV-IIIB = experiment: as above; assay type: cell-based, human; settings: 3 days
Method: as §1, §2

MOLT-4 = experiment: Killing effect on uninfected cells (Test Example 1), trypan blue; assay type: cell-based, human; settings: 100 μg/ml, 3 days
Method: as §1, §2

HTLV-IIIB in MT-4 cells = experiment: Anti-HIV effect: TCID50 of infectious virus from infected MT-4 cells (Test Example 5); assay type: cell-based, HIV (HTLV-IIIB); settings: 4 days, positive control 3.31 × 10^7
Method: The inhibitory effects of test substances on the cytopathy and HIV antigen production of MT-4 cells due to HIV infection were determined.
MT-4 cells belonging to a cell strain persistently infected with HTLV-1 are high in sensitivity to HIV and promptly die out when infected. MT-4/HIV cells which are MT-4 cells infected with HIV are used for screening anti-HIV agents making good use of this nature.
After MT-4 cells (1.2×10^7 cells) were infected for 2 hours at 37° C. with 3.2 ml of HTLV-IIIB (10^7 TCID50 /ml) obtained from a culture supernatant of a cell strain persistently infected with HIV, i.e., […], the cells were washed. After the cells were then inoculated on a 48-well microplate in a proportion of 1×10^5 cells/well, the test substances were separately added in an amount of 100 μl. As a negative control, there was used a culture obtained by adding 3.2 ml of a culture supernatant after culturing MOLT-4 cells for 3 days to MT-4 cells (4.7×10^6 cells), conducting culture for 2 hours at 37° C., washing the cells in the same manner as described above, inoculating them in a proportion of 1×10^5 cells/well and adding PBS in place of the test substances.
Upon elapsed time of 4 days after the culture, each supernatant was assayed on a P24gag protein based on an EIA kit produced by Abbott Labs, and the number of living cells was counted by the Trypan Blue dye exclusion method, and moreover, TCID50 indicative of an actual quantity of infectious virus was calculated.

[1] = tested on: human peripheral blood lymphocytes (PBL), uninfected system; experiment: Cytotoxic effect on uninfected PBL (Test Example 6); assay type: cell-based; settings: sixth day, 8640 min
Method: (§3) The anti-HIV effects of test substances on human peripheral blood lymphocytes infected with HIV were determined.
(§4) After blood is collected from a vein by a syringe whose interior wall is wetted with heparin, PBL is separated from the blood with Ficol. After this PBL cell is inoculated on a 25-cm^2 culture flask containing 10 ml of a RPMI 1640 medium (including IL-2) added with 20% of a fetal bovine serum so as to contain 7×10^5 cells/ml therein, 40 μl (1 mg/ml) of PHA are added to culture the cells for 4 days. After 4 days, the cells are washed. Thereafter, they are used in assaying the anti-HIV effects of the test substances as PBL cells in an HIV-uninfected system for part of them, and in an HIV-infected system for the remainder. The PBL cells are inoculated on a 25-cm^2 culture flask added with 5 ml of the above medium so as to contain 2×10^6 cells therein. Then, 500 μl of S-HSA-Hemin or S-HSA-EDC-Hemin are given in various concentrations thereto so as to conduct culture at 37° C. in the presence of 5% CO2, thereby assaying the cytotoxic effects of the test substances in the various concentrations. With respect to the infected system on the other hand, 8 ml of HTLV-IIIB (10^7 TCID50 /ml) obtained from a culture supernatant of an HIV-persistently infected strain, MOLT-4/HTLV-IIIB are inserted in the PBL cells to culture them for 2 hours. Thereafter, the cells are washed, and then inoculated on a 25-cm^2 culture flask added with 5 ml of the above medium so as to contain 2×10^6 cells therein. In the same manner as described above, S-HSA-Hemin or S-HSA-EDC-Hemin is given in the various concentrations thereto, thereby conducting culture at 37° C. in the presence of 5% CO2. After 3, 6 and 9 days from the beginning of the culture, the number of cells are counted to calculate the quantity of the P24 protein produced and TCID50.

[2] = tested on: HTLV-IIIB in human peripheral blood lymphocytes (PBL); experiment: P24 production in HIV-infected PBL (Test Example 6); assay type: cell-based, HIV (HTLV-IIIB); settings: sixth day, 8640 min
Method: as §3, §4

SHSA: succinylated human serum albumin [reference compound]
living cells (percentage to the control) (MOLT-4/ARV; 200 μg/ml): 100%
living cells (percentage to the control) (MOLT-4/HTLV-IIIB; 100 μg/ml): 100%
living cells (percentage to the control) (MOLT-4): 100%
TCID50 (quantity of infectious virus) (HTLV-IIIB in MT-4 cells; 100 μg/ml): 1.64 × 10^5 TCID50 /ml

S--HSA--PP: complex of succinylated human serum albumin and PP (protoporphyrin)
living cells (percentage to the control) (MOLT-4/ARV; 14.2 μg/ml): 56%
living cells (percentage to the control) (MOLT-4/ARV; 28.5 μg/ml): 26%
living cells (percentage to the control) (MOLT-4/ARV; 56.9 μg/ml): 10%
living cells (percentage to the control) (MOLT-4/ARV; 1l3.8 μg/ml): 0%
living cells (percentage to the control) (MOLT-4/HTLV-IIIB; 14.2 μg/ml): 69%
living cells (percentage to the control) (MOLT-4/HTLV-IIIB; 28.5 μg/ml): 25%
living cells (percentage to the control) (MOLT-4/HTLV-IIIB; 56.9 μg/ml): 8%
living cells (percentage to the control) (MOLT-4/HTLV-IIIB; 1l3.8 μg/ml): 0%

S--HSA-Hemin: complex of succinylated human serum albumin and hemin
TCID50 (quantity of infectious virus) (HTLV-IIIB in MT-4 cells; 90.8 μg/ml): 4.06 × 10^3 TCID50 /ml
Living cells in uninfected system ([1]; 45.4 μg/ml): 113%
Living cells in uninfected system ([1]; 90.8 μg/ml): 88%
Living cells in uninfected system ([1]; 181.6 μg/ml): 66%
P24 production in infected system ([2]; 45.4 μg/ml): 4.8%
P24 production in infected system ([2]; 90.8 μg/ml): 3.1%
P24 production in infected system ([2]; 181.6 μg/ml): 1.7%
